Laboratory results published in PMC3989234, “Introduction of Aromatic Ring-Containing Substituents in Cyclic Nucleotides Is Associated with Inhibition of Toxin Uptake by the Hepatocyte Transporters OATP 1B1 and 1B3” (PLoS ONE, 2014).
A number of entries come with more than one value. This list holds those alone. The source may hold further records. Values that stand side by side differ, and nothing given here explains why; they may come from other doses, times, organisms or constructs than stated.

The chains behind the UniProt entries cited, without tags or fusion partners.
UniProt Q9NPD5, whole entry: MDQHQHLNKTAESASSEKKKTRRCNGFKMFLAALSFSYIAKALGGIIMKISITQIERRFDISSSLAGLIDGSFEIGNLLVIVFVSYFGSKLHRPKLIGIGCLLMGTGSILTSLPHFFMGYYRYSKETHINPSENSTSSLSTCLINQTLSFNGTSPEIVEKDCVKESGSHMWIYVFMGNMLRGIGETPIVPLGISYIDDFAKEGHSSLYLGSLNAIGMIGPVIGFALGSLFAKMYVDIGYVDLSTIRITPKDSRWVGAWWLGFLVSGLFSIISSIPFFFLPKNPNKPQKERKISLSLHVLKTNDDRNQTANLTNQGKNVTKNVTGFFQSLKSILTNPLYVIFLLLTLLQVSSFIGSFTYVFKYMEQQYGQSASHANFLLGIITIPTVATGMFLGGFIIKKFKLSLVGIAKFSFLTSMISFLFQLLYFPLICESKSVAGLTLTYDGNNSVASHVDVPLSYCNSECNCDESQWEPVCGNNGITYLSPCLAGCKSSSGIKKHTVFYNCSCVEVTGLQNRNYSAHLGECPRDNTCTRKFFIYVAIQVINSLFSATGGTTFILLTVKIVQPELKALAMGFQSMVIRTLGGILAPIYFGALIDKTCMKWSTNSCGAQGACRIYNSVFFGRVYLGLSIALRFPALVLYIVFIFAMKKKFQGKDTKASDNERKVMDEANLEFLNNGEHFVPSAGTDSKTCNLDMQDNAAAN

Biological target: OATP1B3 (Homo sapiens, UniProt Q9NPD5)
Assay: Inhibition of nodularin (Nod)-induced apoptosis in OATP1B3-transfected HEK293T cells
Settings: read-out: OATP1B3 IC50 (inhibition of HEK293T-cell apoptosis induced by nodularin), Nod 0.6 µM, analog 15 min before Nod, 90 min coincubation, unit inferred

With `O=P1(O)OC[C@H]2O[C@@H](n3c(Sc4ccc(Cl)cc4)nc4c(Nc5ccccc5)ncnc43)[C@H](O)[C@@H]2O1` as the compound, how does the IC50 read?
Its IC50 is < 10 µM and 3 µM.
